Measured values from several laboratories, pooled; numbers as filed in NIAID ChemDB.

Common to all: target-level tests; species: HIV; target: Reverse transcriptase

Blank or dashed fields: not listed here.

| SMILES | setting | read by | mutations | measure | result |
|---|---|---|---|---|---|
| S=C(CCCc1ccccc1)Nc1ccc(Cl)cn1 |  | radiometric | L100I | IC50 | >100 µM |
| Nc1ccn([C@H]2CC[C@@H](COP(=O)(O)OP(=O)(O)OP(=O)(O)O)O2)c(=O)n1 |  | nucleotide incorporation / radiometric | RT-D67N K70R T215Y K219Q | fold resistance | 1.26 |
| S=C(Cc1ccccn1)Nc1ccc(Cl)cc1 |  | radiometric | Y181I | IC50 | >100 µM |
| Nc1nc2c(ncn2[C@H]2CC[C@@H](COP(=O)(O)OP(=O)(O)OP(=O)(O)O)O2)c(=O)[nH]1 |  |  | RT-L74V | fold resistance | 4.29 |
| Fc1cccc(F)c1CC(=S)NCc1ccccn1 |  | radiometric | K103N | IC50 | >100 µM |
| Cc1cn([C@H]2CC[C@@H](COP(=O)(O)OP(=O)(O)OP(=O)(O)O)O2)c(=O)[nH]c1=O |  |  | RT-L74V T215Y | Ki | 0.24 µM |
| Cc1cn([C@H]2CC[C@@H](COP(=O)(O)OP(=O)(O)OP(=O)(O)OP(=O)(O)OC[C@@H]3CC[C@H](n4cc(C)c(=O)[nH]c4=O)O3)O2)c(=O)[nH]c1=O |  | nucleotide incorporation / radiometric | RT-M41L T215Y | fold resistance | 0.38 |
| CC(C)=CCN1Cc2cccc3[nH]c(=S)n(c23)C[C@@H]1C |  | nucleotide incorporation |  | Ki | 0.32 µM |
| Nc1nc2c(ncn2[C@H]2CC[C@@H](COP(=O)(O)OP(=O)(O)OP(=O)(O)O)O2)c(=O)[nH]1 |  | nucleotide incorporation / radiometric | RT-M41L T215Y | fold resistance | 0.66 |
| Nc1ccn([C@H]2C[C@H](O)[C@@H](COP(=O)(O)OP(=O)(O)OP(=O)(O)O)O2)c(=O)n1 |  | nucleotide incorporation / radiometric | RT-Y188L | fold resistance | 1.25 |
| Nc1ncnc2c1ncn2[C@H]1CC[C@@H](COP(=O)(O)OP(=O)(O)OP(=O)(O)O)O1 |  | nucleotide incorporation / radiometric | RT-V77I F116Y Q151M | IC50 | 37 µM |
| CC(C)=CCN1Cc2cccc3[nH]c(=S)n(c23)C[C@@H]1C |  | nucleotide incorporation | RT-Y271S | fold resistance | 125 |
| Nc1ccn([C@H]2CC[C@@H](COP(=O)(O)OP(=O)(O)OP(=O)(O)O)O2)c(=O)n1 |  | nucleotide incorporation / radiometric | RT-F116Y Q151M | IC50 | 5 µM |
| CC(C)OC(=O)c1cc(NC(=S)OC(C)C)ccc1Cl |  | radiometric | L100I | IC50 | 27.4 µM |
| Nc1nc2c(ncn2[C@H]2CO[C@@H](COP(=O)(O)OP(=O)(O)OP(=O)(O)O)O2)c(=O)[nH]1 |  | radiometric | RT-M184V | Ki | 0.06 µM |
| Cc1cn([C@H]2CC[C@@H](COP(=O)(O)OP(=O)(O)OP(=O)(O)O)O2)c(=O)[nH]c1=O |  | nucleotide incorporation / radiometric | RT-D67N K70R T215Y K219Q | fold resistance | 1.67 |
| Cc1cc(Cc2ccc(Cl)c(Oc3cc(C#N)cc(C#N)c3)c2F)n[nH]c1=O | 40% human serum |  | WT | IC50 | 0.007 µM |
| Nc1ncnc2c1ncn2[C@H]1CC[C@@H](COP(=O)(O)OP(=O)(O)OP(=O)(O)OP(=O)(O)OC[C@@H]2CC[C@H](n3cnc4c(N)ncnc43)O2)O1 |  | nucleotide incorporation / radiometric | RT-D67N K70R T215Y K219Q | fold resistance | 0.1 |
| CN(C)CCCN=C(N)c1ccc(C(N)=NCCCN(C)C)cc1 |  | nucleotide incorporation / radiometric | RT-Y188L | fold resistance | 5.95 |

Repeating the final 2 entries:

| SMILES | setting | read by | mutations | measure | result |
|---|---|---|---|---|---|
| Nc1ncnc2c1ncn2[C@H]1CC[C@@H](COP(=O)(O)OP(=O)(O)OP(=O)(O)OP(=O)(O)OC[C@@H]2CC[C@H](n3cnc4c(N)ncnc43)O2)O1 |  | nucleotide incorporation / radiometric | RT-D67N K70R T215Y K219Q | fold resistance | 0.1 |
| CN(C)CCCN=C(N)c1ccc(C(N)=NCCCN(C)C)cc1 |  | nucleotide incorporation / radiometric | RT-Y188L | fold resistance | 5.95 |

Fold resistance has wild type as its base. Lines come from different laboratories, so protocols vary. ICn: concentration for n% inhibition.